Source: PubChem BioAssay AID1259414 (Drosophila RNAi Screening Center, 2018)
Aim: 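Host factors increasing or decreasing Wolbachia levels in cultured fly cells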 (primary screen). Cell system: Drosophila JW18 cells infected with Wolbachia. Reagents: long dsRNA against Drosophila genes, 0.25 µg dsRNA per well of a 384-well plate. Time to read-out: 5 days. Conditions: cells persistently infected with Wolbachia before knock-down; no added drug. Read-out: 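Imaged fluorescence in situ signal for Wolbachia 23S rRNA per DAPI-counted host cell, given as a robust z-score within each plate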. Reading the numbers: Wolbachia per cell robust z: higher = more Wolbachia per host cell than the plate typical. Rule for the call: 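Active if absolute robust z reaches 1.5 in two or more of three replicates, leaving out multi- or no-target dsRNAs, genes unexpressed in JW18 and A1 wells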.
The deposit covers about 24,000 reagents; shown is an unselected part of those with a known target gene and a result. In the full data, about 1,210 (5%) got an active call. 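Inactive calls also include excluded dsRNAs with several or no targets, genes unexpressed in JW18, and well A1, regardless of score.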

twe (twine) [DRSC03628] → Wolbachia per cell robust z, rep 1 = -0.0372; Wolbachia per cell robust z, rep 2 = -0.243; Wolbachia per cell robust z, rep 3 = 0.621; Call = inactive
twe (twine) [DRSC27109] → Wolbachia per cell robust z, rep 1 = 0.422; Wolbachia per cell robust z, rep 2 = 0.288; Wolbachia per cell robust z, rep 3 = 0.246; Call = inactive
CG13285 [DRSC09960] → Wolbachia per cell robust z, rep 1 = -0.385; Wolbachia per cell robust z, rep 2 = -1.16; Wolbachia per cell robust z, rep 3 = 0.459; Call = inactive
Ucp4C (Uncoupling protein 4C) [DRSC03132] → Wolbachia per cell robust z, rep 1 = -7.74; Wolbachia per cell robust z, rep 2 = 0.126; Wolbachia per cell robust z, rep 3 = -7.82; Call = inactive
Ucp4C (Uncoupling protein 4C) [DRSC27836] → Wolbachia per cell robust z, rep 1 = 0.218; Wolbachia per cell robust z, rep 2 = -0.775; Wolbachia per cell robust z, rep 3 = 0.18; Call = inactive
nol (no optic lobe) [DRSC21425] → Wolbachia per cell robust z, rep 1 = -1.34; Wolbachia per cell robust z, rep 2 = 0.68; Wolbachia per cell robust z, rep 3 = 0.154; Call = inactive
nol (no optic lobe) [DRSC25423] → Wolbachia per cell robust z, rep 1 = -0.0711; Wolbachia per cell robust z, rep 2 = 0.654; Wolbachia per cell robust z, rep 3 = 0.922; Call = inactive
Gbeta76C (G protein beta subunit 76C) [DRSC11174] → Wolbachia per cell robust z, rep 1 = -2.56; Wolbachia per cell robust z, rep 2 = -0.156; Wolbachia per cell robust z, rep 3 = 0.466; Call = inactive
kune (kune-kune) [DRSC04860] → Wolbachia per cell robust z, rep 1 = 0.633; Wolbachia per cell robust z, rep 2 = -1.4; Wolbachia per cell robust z, rep 3 = -0.243; Call = inactive
Kif3C (Kinesin family member 3C) [DRSC17209] → Wolbachia per cell robust z, rep 1 = 0.216; Wolbachia per cell robust z, rep 2 = -0.26; Wolbachia per cell robust z, rep 3 = 0.73; Call = inactive
Kif3C (Kinesin family member 3C) [DRSC17210] → Wolbachia per cell robust z, rep 1 = -0.449; Wolbachia per cell robust z, rep 2 = -0.194; Wolbachia per cell robust z, rep 3 = 0.566; Call = inactive
nub (nubbin) [DRSC02498] → Wolbachia per cell robust z, rep 1 = 0.552; Wolbachia per cell robust z, rep 2 = -1.95; Wolbachia per cell robust z, rep 3 = -0.383; Call = inactive
nub (nubbin) [DRSC03583] → Wolbachia per cell robust z, rep 1 = 1.7; Wolbachia per cell robust z, rep 2 = 1.25; Wolbachia per cell robust z, rep 3 = -0.973; Call = inactive
nub (nubbin) [DRSC23066] → Wolbachia per cell robust z, rep 1 = -1.78; Wolbachia per cell robust z, rep 2 = -2.27; Wolbachia per cell robust z, rep 3 = -0.389; Call = inactive
nub (nubbin) [DRSC25610] → Wolbachia per cell robust z, rep 1 = -0.169; Wolbachia per cell robust z, rep 2 = 0.357; Wolbachia per cell robust z, rep 3 = 0.139; Call = inactive
nub (nubbin) [DRSC27113] → Wolbachia per cell robust z, rep 1 = -0.304; Wolbachia per cell robust z, rep 2 = -0.0206; Wolbachia per cell robust z, rep 3 = -5.47; Call = inactive
nub (nubbin) [DRSC28839] → Wolbachia per cell robust z, rep 1 = 0.0638; Wolbachia per cell robust z, rep 2 = 0.278; Wolbachia per cell robust z, rep 3 = 1.73; Call = inactive
nub (nubbin) [DRSC39102] → Wolbachia per cell robust z, rep 1 = 1.16; Wolbachia per cell robust z, rep 2 = 0.884; Wolbachia per cell robust z, rep 3 = -3.55; Call = inactive
Tim17b1 [DRSC12179] → Wolbachia per cell robust z, rep 1 = -0.975; Wolbachia per cell robust z, rep 2 = 0.421; Wolbachia per cell robust z, rep 3 = 0.555; Call = inactive
CG4854 [DRSC15663] → Wolbachia per cell robust z, rep 1 = 0.857; Wolbachia per cell robust z, rep 2 = 0.414; Wolbachia per cell robust z, rep 3 = 0.891; Call = inactive
CG4854 [DRSC27454] → Wolbachia per cell robust z, rep 1 = 1.45; Wolbachia per cell robust z, rep 2 = 0.452; Wolbachia per cell robust z, rep 3 = 0.191; Call = inactive
O-fut2 (O-fucosyltransferase 2) [DRSC18608] → Wolbachia per cell robust z, rep 1 = -1.34; Wolbachia per cell robust z, rep 2 = 0.431; Wolbachia per cell robust z, rep 3 = 0.857; Call = inactive
CG4218 [DRSC01939] → Wolbachia per cell robust z, rep 1 = -0.944; Wolbachia per cell robust z, rep 2 = -0.212; Wolbachia per cell robust z, rep 3 = 0.204; Call = inactive
CG4218 [DRSC27814] → Wolbachia per cell robust z, rep 1 = 0.546; Wolbachia per cell robust z, rep 2 = 1.15; Wolbachia per cell robust z, rep 3 = 1.54; Call = inactive
